Assay results as given in the supplement of paper PMC9931576.
Human monoclonal antibodies against the spike receptor-binding domain (heavy:light variable regions). IC50 against pseudoviruses bearing the spike of naturally observed variants; lower = stronger; >10 µg/ml means not reached at the top dose. No active / inactive call. The stated detection limit is 0.0005 µg/ml; values near or below 0.001 µg/ml lie at the floor of the assay.

Experiments:
Assay in all cases: pseudovirus neutralization IC50; higher = weaker neutralization
[1] = target: SARS-CoV-2 Omicron BA.1 spike pseudovirus
Experimental: (§1)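 Single-round VSV luciferase pseudovirus mixed with antibody dilutions for 1 h and put on Huh-7 cells for about a day; IC50 from the dose curve.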

[2] = target: SARS-CoV-2 Omicron BA.2 spike pseudovirus
Experimental: as §1

[3] = target: SARS-CoV-2 Omicron BA.2.75 spike pseudovirus
Experimental: as §1

[4] = target: SARS-CoV-2 Omicron BA.5 spike pseudovirus
Experimental: as §1

[5] = target: SARS-CoV-2 Omicron BQ.1.1 spike pseudovirus
Experimental: as §1

[6] = target: SARS-CoV-2 Omicron XBB spike pseudovirus
Experimental: as §1

[7] = target: SARS-CoV-2 early D614G spike pseudovirus
Experimental: as §1

Row | Binder | pseudovirus neutralization IC50 [1] [µg/mL] | pseudovirus neutralization IC50 [2] [µg/mL] | pseudovirus neutralization IC50 [3] [µg/mL] | pseudovirus neutralization IC50 [4] [µg/mL] | pseudovirus neutralization IC50 [5] [µg/mL] | pseudovirus neutralization IC50 [6] [µg/mL] | pseudovirus neutralization IC50 [7] [µg/mL]
1 | BD55-599 (protein) chain 1: EVQLVQSGAEVKKPGESLKISCKGSGYSFTRYWIAWVRQTPGKGLEWMGIIYPGDSDTRYSPSFQDQVTISADKSISTAFLQWSSLKASDTAMYFCARASSPFYYGSGSYQGGMDVWGQGTTVSVSS chain 2: EIVMTQSPATLSVSPGERATLSCRASQRVSSNLAWYQQKPGQAPRLLIYGASTRATGIPARFSGSGSGTEFTLTISSLQSEDFALYYCQQYNNWPGEFTFGPGTTVDIK | > 10 | > 10 | > 10 | > 10 | > 10 | > 10 | > 10
2 | BD55-600 (protein) chain 1: QVQLVESGGGVVQPGRSLRLSCAASGFTFRSYAMHWVRQAPGKGLEWVALISYDGNNKYYVDSVKGRFTISRDNSENTLYLHMNSLRVEDTAVYYCARGPWHDWAPWYLDLWGRGTLVTASS chain 2: DIQMTQSPSSLSASVGDRVTITCRASQGISSWLAWYQQKPEKAPKSLIYAASSLQSGVPSRFSGSGSGTDFTLTISSLQPEDFATYYCQQYNSYPLTFGGGTKVEIK | > 10 | > 10 | > 10 | > 10 | > 10 | > 10 | 0.0655
3 | BD55-603 (protein) chain 1: EVQLVESGGGLVQPGGSLRLTCAASGFTFSSYWMSWVRQAPGKGLEWVANIKQDGSEKYYVDSVKGRFTISRDNAKNSLYLQMNSLRAEDTAVYYCARGLKEVTAILSEGIDYWGQGTLVTVSS chain 2: SYELTQPPSVSVSPGQTARITCSGDALPKQYAYWYQQKPGQAPVLVIYKDSERPSGIPERFSGSSSGTTVTLTISEVQAEDEADYYCQSADSSGVVFGGGTKLTVL | > 10 | > 10 | > 10 | > 10 | > 10 | > 10 | > 10
4 | BD55-606 (protein) chain 1: QVQLQQWGAGLLKPSETLSRTCAVYGGSFSGYYWTWIRQPPGKGLEWIGDIHHSGSTNYNPSLKSRVTMSVDTSKNQFSLELRSVSAADTAVYYCVRGFEGYCSGGRCYSYFDYWGQGTLVTVSS chain 2: EIVMTQSPATLSVSPGERATLSCRASQSVSSNLAWYQQKPGQAPRLLIYGASSRATGIPARFSGSGSGTEFTLTISSLQSGDFGVYYCQQYNNWPYTFGQGINLEIK | > 10 | > 10 | > 10 | > 10 | > 10 | > 10 | 0.142
5 | BD55-663 (protein) chain 1: QVQLVQSGAEVKKPGSSVKVSCKASGGTFSRYAISWVRQAPGQGLEWMGGIIPMFGTANYAQKFQGRVTITADESTSTAYMELSSLRSEDTAVYYCAREMITFGGVIVEKFGRYYYYYGMDVWGQGTTVTVSS chain 2: EIVLTQSPGTLSLSPGERATLSCRASQSVSSNYLAWYQQKPGQAPRLLIYGASSRASGIPDRFNGSGSGTDFTLTISRLEPEDFAVYYCQQYGSSARTFGQGTKVEIK | > 10 | > 10 | > 10 | > 10 | > 10 | > 10 | > 10
6 | BD55-676 (protein) chain 1: QLQLQESGPGLVKPSETLSLTCTVSGGSISSTSYYWGWIRQPPGKGLECIGTMFHSGRTYYSPSLKSRVTISVDTSKNQFSLKLSSVTAADTAVYYCSTLQWLRGFFHYWGQGTLVTVSS chain 2: NFMLTQPHSVSESPGKTVTISCTRSSDSIASNYVQWYQQRPGSAPTTVIYEDNQRPSGVPDRFSGSIDSSSNSASLTISGLKTEDEADYYCQSYDSSNRFWVFGGGTKLTVL | > 10 | > 10 | > 10 | > 10 | > 10 | > 10 | 1.57
